Measurements reported in PubChem BioAssay AID1259414 (Drosophila RNAi Screening Center, 2018).
Test: 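Host factors increasing or decreasing Wolbachia levels in cultured fly cells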 (primary screen). Cells: Drosophila JW18 cells infected with Wolbachia. Reagent: long dsRNA against Drosophila genes, 0.25 µg dsRNA per well of a 384-well plate. Timing: 5 days. Challenge: cells persistently infected with Wolbachia before knock-down; no added drug. Read-out: 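Automated imaging of bacterial rRNA staining divided by host cell count, reported as plate-normalised robust z-score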. Scale: Wolbachia per cell robust z: higher = more Wolbachia per host cell than the plate typical. Active means: 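Hit when robust z is 1.5 or more, or -1.5 or less, in at least two of three replicates; excludes dsRNAs with several or no targets, genes not expressed in JW18 and well A1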.
The deposit covers about 24,000 reagents; this is a random part of those that have a named target and a result. Over the whole deposit, about 1,210 (5%) are marked active. 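Inactive calls also include excluded dsRNAs with several or no targets, genes unexpressed in JW18, and well A1, regardless of score.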

With CG15800 [DRSC04271], how do the results read?
Wolbachia per cell robust z, rep 1: 0.822; Wolbachia per cell robust z, rep 2: 1.39; Wolbachia per cell robust z, rep 3: 0.733; Call: inactive

With CG13362 [DRSC17897], how do the results read?
Wolbachia per cell robust z, rep 1: 1.36; Wolbachia per cell robust z, rep 2: 0.679; Wolbachia per cell robust z, rep 3: 1.28; Call: inactive

What is on record for CG13362 [DRSC25324]?
Wolbachia per cell robust z, rep 1: 0.675; Wolbachia per cell robust z, rep 2: 0.306; Wolbachia per cell robust z, rep 3: -0.518; Call: inactive

What is on record for CG32117 [DRSC21652]?
Wolbachia per cell robust z, rep 1: 0.97; Wolbachia per cell robust z, rep 2: -0.0456; Wolbachia per cell robust z, rep 3: -0.392; Call: inactive

What is on record for CG10321 [DRSC04061]?
Wolbachia per cell robust z, rep 1: -0.124; Wolbachia per cell robust z, rep 2: -1.8; Wolbachia per cell robust z, rep 3: 0.145; Call: inactive

For CG10321 [DRSC28284], what was measured?
Wolbachia per cell robust z, rep 1: -0.587; Wolbachia per cell robust z, rep 2: 0.124; Wolbachia per cell robust z, rep 3: -0.137; Call: inactive

Taken from above:
Entry for CG32117 [DRSC21652] under “Wolbachia per cell robust z, rep 2”: -0.0456
Value of CG10321 [DRSC28284] in “Wolbachia per cell robust z, rep 1”: -0.587

The list goes on.
For dpa [DRSC07604], what was measured?
Wolbachia per cell robust z, rep 1: 0.736; Wolbachia per cell robust z, rep 2: 0.621; Wolbachia per cell robust z, rep 3: 1.14; Call: inactive

For CG6733 [DRSC16103], what does the deposit list?
Wolbachia per cell robust z, rep 1: -0.092; Wolbachia per cell robust z, rep 2: -1.87; Wolbachia per cell robust z, rep 3: 0.417; Call: inactive

How did the screen score Polr1H [DRSC14594]?
Wolbachia per cell robust z, rep 1: -4.92; Wolbachia per cell robust z, rep 2: 0.327; Wolbachia per cell robust z, rep 3: 3.27; Call: inactive

What is on record for Polr1H [DRSC28980]?
Wolbachia per cell robust z, rep 1: 1.83; Wolbachia per cell robust z, rep 2: -0.111; Wolbachia per cell robust z, rep 3: -0.138; Call: inactive

For Polr1H [DRSC41617], how do the results read?
Wolbachia per cell robust z, rep 1: -1.21; Wolbachia per cell robust z, rep 2: 0.793; Wolbachia per cell robust z, rep 3: 0.399; Call: inactive

For CG34149 [DRSC14537], what does the deposit list?
Wolbachia per cell robust z, rep 1: 0.485; Wolbachia per cell robust z, rep 2: -0.189; Wolbachia per cell robust z, rep 3: 0.83; Call: inactive

What is on record for CG34149 [DRSC41369]?
Wolbachia per cell robust z, rep 1: -1.3; Wolbachia per cell robust z, rep 2: -0.843; Wolbachia per cell robust z, rep 3: -2.15; Call: inactive

With CG4297 [DRSC00651], what was measured?
Wolbachia per cell robust z, rep 1: -0.0751; Wolbachia per cell robust z, rep 2: -0.436; Wolbachia per cell robust z, rep 3: -1.5; Call: inactive

With CG32199 [DRSC09990], what does the deposit list?
Wolbachia per cell robust z, rep 1: 0.778; Wolbachia per cell robust z, rep 2: 0.918; Wolbachia per cell robust z, rep 3: 0.183; Call: inactive

For Kr-h2 [DRSC03356], what does the deposit list?
Wolbachia per cell robust z, rep 1: -0.255; Wolbachia per cell robust z, rep 2: -0.512; Wolbachia per cell robust z, rep 3: -0.44; Call: inactive
